Consider 2 sequences from PMC7602700.

This data set concerns ParB (pESBL, Hp7). The experiment in a line: EMSA. As to conditions: salmon sperm DNA 100 ug/mL, 50 mM Tris-HCl pH 7.5, 100 mM NaCl, 250 uM DTT, 15% glycerol, 1 mM EDTA, 100 ug/mL salmon sperm DNA, 4 pmol probe in 10 uL, 15 min at 24 C, 5% PAGE in TGE at 4 C, protein in a lysate after overexpression, label: 5'-Cy3 on strand 1. On the technique in general: In EMSA bound probe runs differently from free probe, usually more slowly.

Construct, isoform or probe ends are uncertain for at least one entry. At least one result comes from cells or an extract, where the contact may be indirect.

For the sequence “TTGAGATAACAAGATAACAAGATAACAAGATAACACCTTGTTATCTTGTTATCTTGTTATCTTGTCATCGAC (double strand) [8-BS]”, where the note is “eight discrete complexes”, the binding result was “binds”.
Consider “CCATAATATTGTTATCTTGTTATCTTGTTATCTTGTTATCTTGTTATCTTGTTGTCTTGTTATCTTAATTAA (double strand) [7-DR]”, for which the binding result (seven discrete complexes) was “binds”.
